Pooled drug test results. Numbers come from NIAID ChemDB, via PubChem.

Shared fields: whole-cell or culture tests

Percent inhibition refers to the dose given; in toxicity tests it is the harm to the cells.

compound,species,strain or isolate,cells,method,measure,dose,value
Nc1ccn(C[C@@H](CO)OCP(=O)(O)O)c(=O)n1.O=C(O)P(=O)(O)O,Human cytomegalovirus,AD169 (ganciclovir foscarnet-susceptible),MRC-5,plaque count,EC75,,0.94 µM
Cc1c(S(=O)(=O)c2ccc(Cl)cc2)c(NC(=O)C(F)(F)F)n(Cc2ccccc2)c1C,Human herpesvirus 6,Z29 (TYPE 6B),MOLT-3,cytopathic effect,EC50,,>20 µg/mL
Nc1nc2c(ncn2[C@@H]2C[C@H](CO)[C@H]2CO)c(=O)[nH]1,Human herpesvirus 7,,CD4+ T lymphocytes,syncytia,EC50,,4.5 µM
N#CC1C(c2ccc(Cl)cc2)Nc2sccc2S1(=O)=O,Human herpesvirus 6,GS (TYPE 6A),HSB-2,hybridisation,EC50,,2.9 µg/mL
Nc1nc2c(ncn2[C@@H]2C[C@H](CO)[C@H]2CO)c(=O)[nH]1,Human cytomegalovirus,PAAR,MRC-5,plaque count,EC75,,12.29 µM
Cc1c(S(=O)(=O)c2ccc(Cl)cc2)c(NC(=O)C(F)(F)F)n(Cc2ccc(Cl)cc2)c1C,Human herpesvirus 6,Z29 (TYPE 6B),MOLT-3,cytopathic effect,EC50,,>20 µg/mL
Nc1nc2c(ncn2COC(CO)CO)c(=O)[nH]1,Human herpesvirus 7,,CD4+ T lymphocytes,syncytia,EC50,,10.7 µM
Cc1oc(NC(=O)C(F)(F)F)c(S(=O)(=O)c2ccc(Cl)cc2)c1C,Human herpesvirus 6,Z29 (TYPE 6B),MOLT-3,cytopathic effect,EC50,,>20 µg/mL
Nc1ncnc2c1ncn2C=C1CC1CO,Human cytomegalovirus,VR4990 (ganciclovir-resistant),,plaque count,EC90,,7.2 µM
Cn1cc(C(=O)NCc2ccc(Cl)cc2)c(=O)c2cc(CN3CCOCC3)ccc21,Human cytomegalovirus,SC,HFF,plaque count,inhibition,5.4 µM,90%
Nc1nc2c(ncn2CCC(CO)CO)c(=O)[nH]1,Human herpesvirus 7,SB,HUMAN CORD BLOOD CELLS,antigen,EC50,,>100 µM
Nc1nc2c(ncn2[C@H]2C=C[C@@H](CO)CC2)c(=O)[nH]1,Human herpesvirus 6,,Human T-lymphoblasts,cytopathic effect,EC50,,3.9 µM
Nc1nc2c(ncn2C[C@]2(CO)C[C@H]2CO)c(=O)[nH]1,Human herpesvirus 6,TYPE 6A,MOLT-3,cytopathic effect,EC50,,2.6 µg/mL
OC[C@H]1O[C@@H](n2c(Cl)nc3cc(Cl)c(Cl)cc32)[C@H](O)[C@@H]1O,Human cytomegalovirus,R56,,virus yield,EC50,,<5.2 µM
CC(C)Nc1nc2cc(Cl)c(Cl)cc2n1[C@H]1O[C@@H](CO)[C@H](O)[C@@H]1O,Human cytomegalovirus,C8910,MRC-5,hybridisation,EC50,,0.12 µM
O=C(NCc1ccc(Cl)cc1)c1c[nH]c2c(F)cccc2c1=O,Human cytomegalovirus,GRU,,plaque count,EC50,,4.9 µM
Nc1nc2c(ncn2COC(CO)CO)c(=O)[nH]1,Human cytomegalovirus,8805REC1 (MET460VAL),MRC-5,hybridisation,EC50,,1.7 µM
Nc1nc2c(ncn2[C@@H]2C[C@H](CO)[C@H]2CO)c(=O)[nH]1.O=C(O)P(=O)(O)O,Human cytomegalovirus,Towne (ganciclovir- foscarnet-susceptible),MRC-5,plaque count,EC75,,0.93 µM
Nc1ncc2c(ncn2COC(CO)CO)n1,Human herpesvirus 6,,Human T-lymphoblasts,,EC50,,0.0066 µM
Nc1nc2c(ncn2COC(CO)CO)c(=O)[nH]1,Human cytomegalovirus,PAAR,MRC-5,plaque count,EC75,,7.44 µM
O=c1[nH]c(=O)n([C@H]2C[C@H](O)[C@@H](CO)O2)cc1/C=C/Br,Human herpesvirus 7,,CD4+ T lymphocytes,syncytia,EC50,,>90 µM

For reference, 2 entries again:

compound,species,strain or isolate,cells,method,measure,dose,value
Nc1nc2c(ncn2COC(CO)CO)c(=O)[nH]1,Human cytomegalovirus,8805REC1 (MET460VAL),MRC-5,hybridisation,EC50,,1.7 µM
Nc1nc2c(ncn2COC(CO)CO)c(=O)[nH]1,Human herpesvirus 7,,CD4+ T lymphocytes,syncytia,EC50,,10.7 µM

ECn is the concentration giving n% inhibition of infection, replication or growth. An empty or dashed field is not shown. Conditions beyond the fields shown may differ between rows.